Assay results reported in PMC6359343 (Molecules, 2019).

test system: Neuraminidase from Clostridium perfringens (bacterial neuraminidase); type: binding; details: fluorescence quenching

| Structure (SMILES) | n (number of binding sites) |
| --- | --- |
| CC(C)=CCc1cc(-c2cc(=O)c3c(O)cc(O)c(CC=C(C)C)c3o2)cc(O)c1O [Compound 1, epimedokoreanin B] | 1.6920 |
| CC(C)=CCc1c(O)cc(O)c2c1OC(c1ccc(O)cc1)C(O)C2=O (centres unmarked) [Compound 2, 8-(γ,γ-dimethylallyl)-5,7,4′-trihydroxydihydroflavonol] | 1.1974 |
| CC(C)=CCc1cc(-c2cc(=O)c3c(O)cc(O)c(CC=C(C)C)c3o2)ccc1O [Compound 3, 5,7,4′-trihydroxy-8,3′-diprenyl flavone] | 1.1206 |
| COc1ccc(-c2oc3c(CC=C(C)C)c(O[C@@H]4O[C@H](CO)[C@@H](O)[C@H](O)[C@H]4O)cc(O)c3c(=O)c2O[C@@H]2O[C@@H](C)[C@H](O)[C@@H](O)[C@H]2O)cc1 [Compound 5, icariin] | 0.8147 |
| COc1ccc(-c2oc3c(CC=C(C)C)c(O)cc(O)c3c(=O)c2O[C@@H]2O[C@@H](C)[C@H](O)[C@@H](O)[C@H]2O[C@@H]2OC[C@@H](O)[C@H](O)[C@H]2O)cc1 [Compound 6, sagittatoside B] | 0.7006 |
| COc1ccc(-c2oc3c(c(O)cc4oc(C(C)(C)OC)cc43)c(=O)c2OC2OC(C)C(O)C(O)C2O)cc1 [Compound 7, 5-hydroxy-2-(4-methoxyphenyl)-8-(2-methoxypropan-2-yl)-3-(((2S,3R,4R,5R,6S)-3,4,5-trihydroxy-6-methyltetra-hydro-2H-pyran-2-yl)oxy)-4H-furo[2-3-h]chromen-4-one] | 1.1733 |
| O=C1c2c(O)cc(O)cc2O[C@H](c2ccc(O)cc2)[C@H]1O [Dihydrokaempferol, dihydrokaempferol, reference compound] | 0.5758 |
| O=c1cc(-c2ccc(O)c(O)c2)oc2cc(O)cc(O)c12 [Luteolin, luteolin, reference compound] | 0.7662 |
